Values of other authors in patent US20060148895A1, “New composition use and method” (priority 2002, published 2006).

Conditions: concentrated, cited from earlier work

In the case of `CC(O)CO` (centres unmarked) [Propylene glycol], the Effect on polycarbonate (7 days of constant exposure at 50° C.) is given as “some effect” and the Damage on polycarbonate (30 days of constant exposure at 20° C.) is given as “little or no damage”.
